Read-outs that look alike come from different tables or passages of the source.
Molecular target: SARS-CoV-2 PLpro-NAB (Severe acute respiratory syndrome coronavirus 2, UniProt P0DTD1)
Assay: biochemical
Details: Table S1

C[C@H]1COC2=C1C(=O)C(=O)c1c2ccc2c1CCCC2(C)C [Cryptotanshinone]
IC50 (DTT buffer, read-out: HP PLpro-NAB SARS-CoV-2 IC50 [µM] triplicates DTT BUFFER): > 20 µM | IC50 (L-cysteine buffer, read-out: HP PLpro-NAB SARS-CoV-2 IC50 [µM] duplicates L-CYS BUFFER): > 20 µM
